Here are results for two molecules from PubChem BioAssay AID624412 (The Scripps Research Institute Molecular Screening Center, 2012).

This is a selection; strong and weak results do not stand in their true shares. Calls of active or inactive are those of the source. No stated cut-off is given here; in the data, active means inhibition above about 7%; inactive means the rest.

One may read the inhibition as the percentage by which the read-out fell short of the control.

For the test, the system named is methionyl-tRNA synthetase (Trypanosoma brucei brucei). In words: T. brucei MetRS inhibitors, confirmation, biochemical, luminescence (AID 624412). Particulars: T. brucei MetRS enzyme, luminescence (ATP depletion); at 11.9 µM; active compounds read high.
As for `CCC1=CC2Cc3nc4ccc(Cl)cc4c(N)c3C(C1)C2` (configuration not stated), the inhibition was active: 96.1%. On to `O=P(Nc1nc2ccc(Cl)cc2s1)(c1ccccc1)c1ccccc1`, for which the inhibition was active: 44.8%.
